Drawing on article PMC10108740 (Journal of Medicinal Chemistry, 2023), this text covers SI for eleven molecules.

Where two headings read alike, the source gives them in different places.

In series [1] the test system is SARS-CoV-2 (WA-1). Description: Antiviral immunofluorescence assay, SARS-CoV-2 WA1 in Vero-TMPRSS2 cells. In kind it is cell-based. The settings on record: SI = CC50/EC50, Vero-TMPRSS2 cells.
Series [2] concerns SARS-CoV-2 (WA-1). As to the kind of experiment: Antiviral immunofluorescence assay, SARS-CoV-2 WA1 in human pluripotent stem cell-derived lung cells. The class given is cell-based. The settings on record: SI = CC50/EC50, PSC-lung cells.
Series [3] concerns SARS-CoV-2 (WA-1). Description: Antiviral immunofluorescence assay, SARS-CoV-2 WA1 in Huh7.5 cells. In kind it is cell-based. Particulars: SI = CC50/EC50, Huh7.5 cells.
Series [4] concerns SARS-CoV-2 WA1 (USA-WA1/2020). Description: Antiviral immunofluorescence assay, SARS-CoV-2 WA1 in Calu-3 cells. The class given is cell-based. Particulars: SI = CC50/EC50, WA1, Calu-3 cells.
The subject of series [5] is SARS-CoV-2 WA1 (USA-WA1/2020). Also noted: method as in Schooley et al.[24]. Particulars: SI = CC50/EC50, Calu-3 cells, ref Schooley et al.[24]; cited from earlier work.

`CCCCCCCCCCCCCCCCCCOC[C@H](COP(=O)(O)OC[C@H]1O[C@@](C#N)(c2ccc3c(N)ncnn23)[C@H](O)[C@@H]1O)OCc1cccc(F)c1` [Compound 9d, ((2R,3S,4R,5R)-5-(4-Aminopyrrolo[2,1-f][1,2,4]triazin-7-yl)-5-cyano-3,4-dihydroxytetrahydrofuran-2-yl)methyl ((R)-2-((3-fluorobenzyl)oxy)-3-(octadecyloxy)propyl) hydrogen phosphate]: in the series with SARS-CoV-2 (WA-1) [1], the SI was more than 369.
As to `CCCCCCCCCCCCCCCCCCOC[C@H](COP(=O)(O)OC[C@H]1O[C@@](C#N)(c2ccc3c(N)ncnn23)[C@H](O)[C@@H]1O)OCc1ccc(OC)c(F)c1` [Compound 9g, ((2R,3S,4R,5R)-5-(4-Aminopyrrolo[2,1-f][1,2,4]triazin-7-yl)-5-cyano-3,4-dihydroxytetrahydrofuran-2-yl)methyl ((R)-2-((3-fluoro-4-methoxybenzyl)oxy)-3-(octadecyloxy)propyl) hydrogen phosphate], the SI in the series with SARS-CoV-2 (WA-1) [1] was more than 561; in the series with SARS-CoV-2 (WA-1) [2] it was more than 119.
Consider `CCCCCCCCCCCCCCCCCCOC[C@H](COP(=O)(O)OC[C@H]1O[C@@](C#N)(c2ccc3c(N)ncnn23)[C@H](O)[C@@H]1O)OCCCCCCCC` [Compound 9h, ((2R,3S,4R,5R)-5-(4-Aminopyrrolo[2,1-f][1,2,4]triazin-7-yl)-5-cyano-3,4-dihydroxytetrahydrofuran-2-yl)methyl ((R)-3-(octadecyloxy)-2-(octyloxy)propyl) hydrogen phosphate], for which the SI was more than 129 with SARS-CoV-2 (WA-1) [1], more than 177 in the series with SARS-CoV-2 (WA-1) [3] and more than 255 in series [4].
In the case of `CCCCCCCCCCCCCCCCCCOC[C@H](COP(=O)(O)OC[C@H]1O[C@@](C#N)(c2ccc3c(N)ncnn23)[C@H](O)[C@@H]1O)OCCC1CCCCC1` [Compound 9i, ((2R,3S,4R,5R)-5-(4-Aminopyrrolo[2,1-f][1,2,4]triazin-7-yl)-5-cyano-3,4-dihydroxytetrahydrofuran-2-yl)methyl ((R)-2-(2-cyclohexylethoxy)-3-(octadecyloxy)propyl) hydrogen phosphate], the SI with SARS-CoV-2 (WA-1) [1] is reported as more than 337.
In the series with SARS-CoV-2 (WA-1) [3], `CCCCCCCCCCCCCCCCCCOC[C@H](COP(=O)(O)OC[C@H]1O[C@@](C#N)(c2ccc3c(N)ncnn23)[C@H](O)[C@@H]1O)OCc1ccccc1C#N` [Compound 9l, ((2R,3S,4R,5R)-5-(4-Aminopyrrolo[2,1-f][1,2,4]triazin-7-yl)-5-cyano-3,4-dihydroxytetrahydrofuran-2-yl)methyl ((R)-2-((2-cyanobenzyl)oxy)-3-(octadecyloxy)propyl) hydrogen phosphate] came in with an SI of more than 980.
On to `CCCCCCCCCCCCCCCCOC[C@H](COP(=O)(O)OC[C@H]1O[C@@](C#N)(c2ccc3c(N)ncnn23)[C@H](O)[C@@H]1O)OCc1ccccc1` [Compound 11a, ((2R,3S,4R,5R)-5-(4-Aminopyrrolo[2,1-f][1,2,4]triazin-7-yl)-5-cyano-3,4-dihydroxytetrahydrofuran-2-yl)methyl ((R)-2-(benzyloxy)-3-(hexadecyloxy)propyl) hydrogen phosphate], for which the SI with SARS-CoV-2 (WA-1) [1] was more than 248; in the series with SARS-CoV-2 (WA-1) [3], more than 763.
With `CCCCCCCCCCCCCCCCOC[C@H](COP(=O)(O)OC[C@H]1O[C@@](C#N)(c2ccc3c(N)ncnn23)[C@H](O)[C@@H]1O)OCc1ccc(OC)c(F)c1` [Compound 11g, ((2R,3S,4R,5R)-5-(4-Aminopyrrolo[2,1-f][1,2,4]triazin-7-yl)-5-cyano-3,4-dihydroxytetrahydrofuran-2-yl)methyl ((R)-2-((3-fluoro-4-methoxybenzyl)oxy)-3-(hexadecyloxy)propyl) hydrogen phosphate], the values for the SI with SARS-CoV-2 (WA-1) [1] and in the series on SARS-CoV-2 (WA-1) [2] were more than 246 and more than 153, respectively.
With `CCCCCCCCCCCCCCOC[C@H](COP(=O)(O)OC[C@H]1O[C@@](C#N)(c2ccc3c(N)ncnn23)[C@H](O)[C@@H]1O)OCc1ccccc1` [Compound 12a, ((2R,3S,4R,5R)-5-(4-Aminopyrrolo[2,1-f][1,2,4]triazin-7-yl)-5-cyano-3,4-dihydroxytetrahydrofuran-2-yl)methyl ((R)-2-(benzyloxy)-3-(tetradecyloxy)propyl) hydrogen phosphate], the SI is reported as more than 110 with SARS-CoV-2 (WA-1) [1], more than 636 with SARS-CoV-2 (WA-1) [3] and more than 469 in series [4].
On to `CCC(CC)COC(=O)[C@H](C)N[P@](=O)(OC[C@H]1O[C@@](C#N)(c2ccc3c(N)ncnn23)[C@H](O)[C@@H]1O)Oc1ccccc1` [RDV, remdesivir], for which the SI in series [5] was more than 434.
As to `N#C[C@@]1(c2ccc3c(N)ncnn23)O[C@H](CO)[C@@H](O)[C@H]1O` [RVn, GS-441524], the SI in series [5] is more than 666.
On to “((2R,3S,4R,5R)-5-(4-Aminopyrrolo[2,1-f][1,2,4]triazin-7-yl)-5-cyano-3,4-dihydroxytetrahydrofuran-2-yl)methyl ((R)-2-(benzyloxy)-7-(tetradec-5-en-1-yloxy)heptyl) hydrogen phosphate [Compound 10a]”, for which the SI in the series with SARS-CoV-2 (WA-1) [1] is listed as more than 341; in the series on SARS-CoV-2 (WA-1) [3] it was more than 917; in series [4], 410; in the series on SARS-CoV-2 (WA-1) [2], more than 74.
